{"sequences": {"note": "Amino acid sequences for entries named in this document (tags omitted). Residues count along the entry.", "UniProt Q7A2Q1, 138-209": "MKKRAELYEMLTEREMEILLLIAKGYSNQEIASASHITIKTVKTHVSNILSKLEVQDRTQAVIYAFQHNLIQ"}, "source": "paper PMC11323011", "about": "“Combatting Antibiotic-Resistant Staphylococcus aureus: Discovery of TST1N-224, a Potent Inhibitor Targeting Response Regulator VraRC, through Pharmacophore-Based Screening and Molecular Characterizations” (Journal of Chemical Information and Modeling, 2024)", "molecular_target": "VraRC (VraR C-terminal DNA-binding domain) (Staphylococcus aureus) (UniProt Q7A2Q1)", "experiment": "fluorescence polarization", "details": "10 nM DNA, unphosphorylated DNA-binding domain; 20 mM sodium phosphate, 150 mM NaCl, pH 6.0, 25 °C, 10 min; recombinant protein; residues 138-209; label: 5' 6-FAM on strand 1", "note": "For at least one entry, the source does not settle the construct or the ends of the probe.", "data": [{"sequence": "AGACTAAAGTATGAACATCATT (double strand) [VraRC cognate DNA (6-FAM 22-mer; probably R1-DNA)]", "values": [{"measurement": "Kd", "value": 4.1, "unit": "µM"}]}]}
